# From PMC9376891 (Nature Communications, 2022)
# B1: MHV68-ORF10-CTT (peptide)
# peptide: RAITDGGESPMEWQTL
# notes: source: synthetic peptide
# Molecular target: T1, Rae1(31-368)-Nup98(157-213) heterodimer (human, UniProt P78406 31-368; P52948 157-213)
# T1 construct: also called Rae1-Nup98; Rae1-Nup98 complex
# Test: ITC
# Conditions: both partners purified
binder,measurement,value
B1,stoichiometry N,1.37
